Publication PMC4958397, “Synthesis, antibacterial and antiproliferative potential of some new 1-pyridinecarbonyl-4-substituted thiosemicarbazide derivatives” (Medicinal Chemistry Research, 2016)

What was measured:
Experiment in all cases: Broth microdilution MIC
Type in all cases: cell-based
[1] = system: Streptococcus mutans PCM 2502; conditions: CC50 in BJ cells / MIC S. mutans
Description: (§1) Panel reference strains of bacteria from the American Type Culture Collection or Polish Collection of Microorganisms, including aerobic Gram-positive bacteria: Staphylococcus aureus ATCC 25923 and Staphylococcus epidermidis ATCC 12228, and aerobic Gram-negative bacteria: Escherichia coli ATCC 25922 and Pseudomonas aeruginosa ATCC 9027, as well as microaerobic Gram-positive bacteria: Lactobacillus spp., Lactobacillus acidophilus PCM 2105, Streptococcus mutans PCM 2502 and Streptococcus sanguinis PCM 2335, were used. Microbial suspensions with an optical density of 0.5 McFarland standard at 1.5 × 10^8 CFU/mL (CFU: colony forming unit) were prepared in sterile 0.9 % NaCl. Mueller–Hinton (M–H) broth and M–H agar (Oxoid Ltd., England) for aerobic strains, and MRS Broth Lactobacillus, MRS Agar Lactobacillus (BioMaxima S.A., Poland), BHI Broth and BHI agar (BioMaxima S.A., Poland) for microaerobic strains were used in the microbial tests.
(§2) A broth microdilution method was used to evaluate the minimum inhibition concentration (MIC) according to the CLSI document (CLSI performance standards for antimicrobial susceptibility testing, 2008, Eighteenth International Supplement, CLSI document M7-MIC, Clinical Laboratory Standards Institute, Wayne) with some modifications. […] A serial doubling dilution of the compounds was prepared in 96-well plates (200 μL per well). A suitable medium (M-H Broth, MRS Broth Lactobacillus, BHI Broth) was used as a diluent. The final concentrations of derivatives were 1000–0.015 μg/mL. Finally, 2 μL of inoculum of the tested bacterial strain (1.5 × 10^8 CFU/mL) was added to each well. The tests were performed either at 36 °C for 18 h (aerobic strains) or at 40 h (microaerobic strains). After incubation, the panel was digitally analyzed at 600 nm using the microplate reader Bio Tech Synergy (USA) with a dedicated software system. The growth intensity in each well was compared with the negative and positive controls.

[2] = system: Escherichia coli ATCC 25922; conditions: CC50 in BJ cells / MIC E. coli
Description: as §1, §2

[3] = system: Staphylococcus aureus ATCC 25923; conditions: CC50 in BJ cells / MIC S. aureus
Description: as §1, §2

[4] = system: Streptococcus sanguinis PCM 2335; conditions: CC50 in BJ cells / MIC S. sanguinis
Description: as §1, §2

Lactobacillus spp. = conditions: CC50 in BJ cells / MIC Lactobacillus spp.
Description: as §1, §2

[5] = system: Lactobacillus acidophilus PCM 210; conditions: CC50 in BJ cells / MIC L. acidophilus
[6] = system: Pseudomonas aeruginosa ATCC 9027; conditions: CC50 in BJ cells / MIC P. aeruginosa
Description: as §1, §2

Row | SMILES | TI (therapeutic index, CC50/MIC), S.m. [1] | TI (therapeutic index, CC50/MIC), E.c. [2] | TI (therapeutic index, CC50/MIC), S.a. [3] | TI (therapeutic index, CC50/MIC), S.s. [4] | TI (therapeutic index, CC50/MIC), L.spp. (Lactobacillus spp.) | TI (therapeutic index, CC50/MIC), L.a. [5] | TI (therapeutic index, CC50/MIC), P.a. [6]
1 | CSc1ccc(NC(=S)NNC(=O)c2cccnc2)cc1 [Compound 6, 4-(4-Methylthiophenyl)-1-(pyridin-3-yl)carbonylthiosemicarbazide] | 3.67 | 14.68 | 3.67 | 58.7 |  |  | 
2 | O=C(NNC(=S)Nc1ccccc1Cl)c1ccccn1 [Compound 2, 4-(2-Chlorophenyl)-1-(pyridin-2-yl)carbonylthiosemicarbazide] | 0.09 | 0.36 | 0.72 | 0.09 | 0.72 | 0.36 | 
3 | O=C(NNC(=S)Nc1ccccc1F)c1ccccn1 [Compound 1, 4-(2-Fluorophenyl)-1-(pyridin-2-yl)carbonylthiosemicarbazide] | 0.85 | 3.41 | 6.82 | 0.43 | 6.83 | 1.70 | 0.43
4 | CSc1ccc(NC(=S)NNC(=O)c2ccccn2)cc1 [Compound 5, 4-(4-Methylthiophenyl)-1-(pyridin-2-yl)carbonylthiosemicarbazide] | 1.53 | 0.38 | 0.19 | 1.53 | 0.09 | 0.10 | 
5 | O=C(NNC(=S)Nc1ccc(Cl)cc1Cl)c1ccncc1 [Compound 10, 4-(2,4-Dichlorophenyl)-1-(pyridin-4-yl)carbonylthiosemicarbazide] | 1.12 |  | 2.25 |  |  | 0.28 | 
6 | CCOc1ccc2nc3cc(N)ccc3c(N)c2c1 [Ethacridine lactate, ethacridine lactate, reference compound] | 0.11 |  | 0.22 |  |  | 0.22 | 
7 | O=C(NNC(=S)Nc1ccc(Cl)cc1Cl)c1ccccn1 [Compound 4, 4-(2,4-Dichlorophenyl)-1-(pyridin-2-yl)carbonylthiosemicarbazide] | 0.62 | 0.31 | 0.62 | 2.50 | 0.62 | 0.62 | 
8 | [H]/N=C(\N/C(=N/[H])NCCCCCCNC(=N)NC(=N)Nc1ccc(Cl)cc1)Nc1ccc(Cl)cc1 [CLX, chlorhexidine digluconate, reference compound] | 17.33 | 17.33 | 17.33 | 1.08 | 34.6 | 8.66 | 0.54
9 | O=C(NNC(=S)Nc1ccc(Cl)cc1Cl)c1cccnc1 [Compound 7, 4-(2,4-Dichlorophenyl)-1-(pyridin-3-yl)carbonylthiosemicarbazide] | 0.18 |  |  |  |  |  | 
